From US20030091594A1

Experiments:
[1] = molecular target: CD4-induced (CD4i) monoclonal antibody 48d; assay: SPR (BIACORE 2000), MAb 48d amine-coupled to CM5 chip, gp120 premixed with saturating sCD4 as analyte, 25 C
[2] = molecular target: CD4-induced (CD4i) monoclonal antibody 17b; assay: SPR (BIACORE 2000), MAb 17b amine-coupled to CM5 chip, gp120 premixed with saturating sCD4 as analyte, 25 C

## 8x gp120 pre-incubated with soluble CD4 (from UniProt P01730 26-394)
[1]
  koff: 0.0006 s⁻¹
  kon: 300000 M⁻¹ s⁻¹
[2]
  Kd: 4.5 nM
